Data published in patent US6605426B1, “Compounds, methods of screening, and in vitro and in vivo uses involving anti-apoptotic genes and anti-apoptotic gene products” (priority 1998, dated 2003).

Tested on: mitochondria of HeLa cells
Assay: Intracellular localization by immunofluorescence and immunoelectron microscopy
Assay type: cell-based, human

B1: pUL37Smyc: pUL37S fused at its C-terminus with a c-myc-epitope tag; constitutively expressed in HeLa/UL37x1#3 cells (protein)
chain: MSPVYVNLLGSVGLLAFWYFSYRWIQRKRLEDPLPPWLRKKKACALTRRSRHRLRRQHGVIDGENSETERSVDLVAALLAEAGEESVTEDTEREDTEEEREDEEEENEARTPEVNPIDAEGLSGLAREACEALKKALRRHRFLWQRRQRARMLQHNGPQQSHQ
subcellular association by immunoelectron microscopy (HeLa/pUL37Smyc cells): associated mainly with the outer mitochondrial membrane
co-localization with mitochondrial markers (immunofluorescence, 9E10 anti-myc antibody, transiently transfected HeLa cells): localized predominantly to mitochondria
